Measured values published in the supplement of paper PMC13380429.

Experiments:
Settings in all cases: 24 h
[1] = system: A549-ACE2 infected with SARS-CoV-2; assay: cell count relative to DMSO; higher = less toxic
[2] = system: A549-ACE2 infected with SARS-CoV-2; assay: SARS-CoV-2 infection rate relative to DMSO; higher = more infection
[3] = system: A549-ACE2 infected with SARS-CoV-2; assay: morphology score (similarity to uninfected cells); higher = more like uninfected cells

N=C(N)NCCC[C@H](N)C(=O)NCC(=O)N[C@@H](CC(=O)O)C(=O)N[C@@H](CO)C(=O)O [DU-728]
cell count ([1]; 0.3 µM): 99% | cell count ([1]; 3 µM): 99% | cell count ([1]; 10 µM): 97% | cell count ([1]; 30 µM): 101% | SARS-CoV-2 infection rate ([2]; 0.3 µM): 100% | SARS-CoV-2 infection rate ([2]; 3 µM): 101% | SARS-CoV-2 infection rate ([2]; 10 µM): 102% | SARS-CoV-2 infection rate ([2]; 30 µM): 99% | morphology score ([3]; 0.3 µM): 0.14 | morphology score ([3]; 3 µM): -0.11 | morphology score ([3]; 10 µM): -0.04 | morphology score ([3]; 30 µM): 0.1
